Here are results for 1 compound from publication PMC9574867, “Discovery and Characterization of Synthesized and FDA-Approved Inhibitors of Clostridial and Bacillary Collagenases” (Journal of Medicinal Chemistry, 2022).

By UniProt entry, the sequences of proteins in these tests, tags left out. Residues count along the entry.
UniProt Q46085, 331-721 limits assumed: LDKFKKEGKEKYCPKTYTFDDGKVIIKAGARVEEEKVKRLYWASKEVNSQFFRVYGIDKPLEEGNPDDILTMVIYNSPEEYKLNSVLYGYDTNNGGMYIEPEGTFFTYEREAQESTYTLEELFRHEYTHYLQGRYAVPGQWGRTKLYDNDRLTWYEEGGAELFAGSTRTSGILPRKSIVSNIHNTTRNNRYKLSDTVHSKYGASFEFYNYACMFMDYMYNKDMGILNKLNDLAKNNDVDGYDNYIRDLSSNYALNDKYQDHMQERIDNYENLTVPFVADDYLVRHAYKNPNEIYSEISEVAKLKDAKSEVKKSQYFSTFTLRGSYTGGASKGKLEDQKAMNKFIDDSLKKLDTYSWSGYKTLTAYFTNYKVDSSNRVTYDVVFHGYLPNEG

One assay concerns the target ColQ1-CU (Bacillus cereus, UniProt B9J3S4). The experiment in a line: In vitro FRET-based peptidolytic assay, collagenase unit of ColQ1. The class given is biochemical, B. cereus strain Q1. Conditions: read-out: Ki (ColQ1-CU); printed in the % inhibition column of Table S1, unit inferred.
The next assay has as its target ColH-PD (Hathewaya histolytica, UniProt Q46085). The assay can be described thus: In vitro FRET-based peptidolytic assay, peptidase domain of ColH. As to conditions: screening at 100 µM.

In general, Ki refers to a dissociation constant, usually derived from enzyme kinetics or from competition with a known ligand. With `CC(C)CC(C(=O)NO)C(=O)Nc1cccc(Cn2cc(CNS(=O)(=O)c3ccc(I)cc3)nn2)c1` (centres unmarked), on ColQ1-CU, the inhibition constant Ki stood at 6.9 µM. Besides, the “% Inhibition (ColH-PD) Mean” value at ColH-PD is on record as 58%.
